Assay results: the CheMixHub ionic liquid set

Assay: xn = mol fraction of the nth substance listed

O=S(=O)(F)[N-]S(=O)(=O)F.[Na+] + COCCOCCOC
100 kPa
Conditions	electrical conductivity, 301.15 K [S/m]	viscosity, 298.1 K [mPa·s]	viscosity, 301.1 K [mPa·s]
x1 = 0.02439	0.21	–	1.2
x1 = 0.03226	0.3	–	1.3
x1 = 0.04762	0.47	–	1.4
x1 = 0.0625	0.67	–	1.6
x1 = 0.09091	1	–	2
x1 = 0.1111	1.04	–	2.3
x1 = 0.1429	1.11	–	2.9
x1 = 0.1667	1.19	–	3.7
x1 = 0.2	1.2	–	5.5
x1 = 0.25	0.97	–	9.4
x1 = 0.3333	0.67	27	23
x1 = 0.5	0.16	311	241

O=S(=O)(F)[N-]S(=O)(=O)F.[Na+] + O=C1CCCO1
303.15 K, 100 kPa
Conditions	electrical conductivity [S/m]	viscosity [mPa·s]
x1 = 0.04762	0.655	2.58
x1 = 0.09091	1.14	4.06
x1 = 0.1	1.5	4.48
x1 = 0.1111	1.51	5.06
x1 = 0.125	1.53	5.96
x1 = 0.1429	1.56	7.32
x1 = 0.1667	1.34	9.84
x1 = 0.2	1.03	14.6
x1 = 0.25	0.714	28.6
x1 = 0.3333	0.325	90.7
x1 = 0.5	0.0556	1164

O=S(=O)(F)[N-]S(=O)(=O)F.[Na+] + COCCOCCOCCOC
Conditions	viscosity [mPa·s]
298.15 K, 100 kPa, x1 = 0.5	496

CCCC[N+]1(C)CCCC1.O=C1O[B-]2(OC1=O)OC(=O)C(=O)O2 + CCCC[N+]1(C)CCCC1.O=S(=O)(F)[N-]S(=O)(=O)F
101.3 kPa
Conditions	viscosity [mPa·s]
288.15 K, x2 = 0.6	880
303.15 K, x2 = 0.2	850
308.15 K, x2 = 0	1055
313.15 K, x2 = 0.6	154
318.15 K, x2 = 0	448
353.15 K, x2 = 0.2	43.2

O=S(=O)(F)[N-]S(=O)(=O)F.[Na+] + COCCOC
100 kPa
Conditions	electrical conductivity, 301.15 K [S/m]	viscosity, 298.1 K [mPa·s]	viscosity, 301.1 K [mPa·s]
x1 = 0.02439	0.47	–	0.6
x1 = 0.03226	0.65	–	0.6
x1 = 0.04762	1	–	0.7
x1 = 0.0625	1.34	–	0.8
x1 = 0.09091	1.84	–	1
x1 = 0.1111	1.94	–	1.4
x1 = 0.1429	2.14	–	2
x1 = 0.1667	2.11	–	2.7
x1 = 0.2	1.71	–	4.5
x1 = 0.25	1.32	11	10
x1 = 0.3333	0.66	45	39
x1 = 0.5	0.07	750	561
